Source: PMC7612645

Amino acid sequences for entries named in this document (tags omitted).
UniProt P03146, whole entry: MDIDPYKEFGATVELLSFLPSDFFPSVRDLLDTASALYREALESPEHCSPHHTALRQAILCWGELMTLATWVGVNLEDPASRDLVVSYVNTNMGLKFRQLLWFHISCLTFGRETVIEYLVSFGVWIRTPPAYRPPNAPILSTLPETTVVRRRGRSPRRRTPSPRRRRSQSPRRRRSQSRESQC

Biological target: HBV core protein (Cp) dimer (Hepatitis B virus) (UniProt P03146)
Test: fluorescence anisotropy
Settings: 10 uM compound #66, up to 1.2 uM Cp, 15 nM RNA; 20 mM HEPES pH 7.5, 250 mM NaCl, 5 mM DTT, DMSO +/- compound, <0.15 M GuHCl, room temperature; Cp titrated in 10 steps to 1.2 uM; recombinant protein; label: 5' AlexaFluor (SDP ester); scale: normalized anisotropy change vs no compound

With “GGGUUUUGGGUUUGUUUAAAGACUGGGAGGAGUUGGGGGAGGAGCCC [PS1 (NC_003977.1)]” the binding signal was 0.938.

Construct, isoform or probe ends are uncertain for at least one entry. Whether high values mean tight binding is not given here for every scale.
